Assay results: the supplement of paper PMC9931576
Human monoclonal antibodies against the spike receptor-binding domain (heavy:light variable regions). IC50 against pseudoviruses bearing the spike of naturally observed variants; lower = stronger; >10 µg/ml means not reached at the top dose. No active / inactive call. The stated detection limit is 0.0005 µg/ml; values near or below 0.001 µg/ml lie at the floor of the assay.

B1: BD58-0574 (protein)
chain 1: QLQLQESGPGLVKPSETLSLTCTVSGGSISSSSHFWGWIRQPPGKGLEWIGNVYYSGGSTYCNPSLKSRLTISVDTSKNQLSLKLSSVAAADTAVYYCARLGRFLTTVTPGAFDIWGQGTMVSVSS
chain 2: QSALTQPASVSGSPGQSITISCTGTSSDVGSYNLVSWYQQHPGKAPKLMIYEVTKRPSGVSNRFSGSKSGDTASLTISGLQAEDEADYYCCAYAGIITLFGGGTKLTVL
B2: BD56-1076 (protein)
chain 1: QVQLVQSGPEVKKPGASVKVSCKASGYSFITYGISWVRQAPGQGLEWMGWISAYDGHTNYAQKLQGRVTLTTDTSTTTAYMELRSLKSDDTAVYYCARDLERKYEVSATDAFDIWGQGTMVTVSS
chain 2: SYELTQPSSVSVSPGQTARITCSGDLLAQKFARWFQQKPGQAPVMVIYKDSERPSGIPERFSGSSSGTTVTLTISGAQVADEADYYCYSATDNIRVFGGGTKLTVL
B3: BD56-974 (protein)
chain 1: QVQLVQSGAEVKKPGSSVKVSCKASGGTFSSYPIAWVRQAPGHGLEWMGGIIPIFGTPNYAQMFQGRVTITADESTSTAFMELRSLRSEDTAMYYCARSQSETGAYNWFDPWGQGTLVTVSS
chain 2: SYVLTQTPSVSVAPGKTARITCGGNNIGSKSVHWYQQRPGQAPVLVVFDDSDRPSGIPERFSGSNSGNTATLTISRVEAGDEADYYCQVWDSRSDHYVFGTGTKVTVL
B4: BD58-0586 (protein)
chain 1: QLRLQESGPGLVKPSETLSLTCTVSGGSISGTSYYWGWIRQPPGKGLEWIASIYYSGSTYYNPSFKSRVTMSVDTSKNQFSLKLSSVTAADTAVYYCARLPDTYCSDGSCYRGWFDPWGQGTLVTVSS
chain 2: DIQMTQSPSSLSASVGDRVTITCRASQSIGRYLNWYQQKPGKAPRLMMYSASNLQSGVPSRFSGSRSGTDFTLSISNLQPEDFATYYCQQSYSASWTFGQGTKVEVK
B5: BD56-1219 (protein)
chain 1: EVRVVESGGRLVKPGGSLRLSCAASGFNFRTYNMNWLRQAPGKGPEWVSSIGASGSYRNYADSVRGRFTISRDNAKNSLYLQMNSLRADDTAVYYCARDSDWGGDILTGSSHIFDYWGQGTVVTVSS
chain 2: DIQMTQSPSSLSASVGDRVTITCRASQTISNSLNWYHQKPGRAPKLLIYGAISSQSGVPSRFSGSGSGTDFTLTISSLQLEDFATYYCQQSYSAPPTFGGGTKVEIK
B6: BD56-1092 (protein)
chain 1: QVQLVQSGAEVKKPGSSVKVSCKASGGTFSSYAINWVRQAPGQGLEWMGRIIPMFGTVNYAQKFQGRVTINADESTSTAYMELSSLRSEDTAVYYCARGMFGHIVVVVAAIGFDIWGQGTMVTVAS
chain 2: QSVLTQPPSVSGAPGQRVTISCTGSSSNIGAGYDVHWYQQLPETAPKLLIYDSTNRPSGVSDRFSGSKSGTSASLAITGLQAEDEADYYCQSYDNDLSGMLFGGGTKLTVL
B7: BD56-1229 (protein)
chain 1: QVQLVQSGAEVKKPGASLKVSCKASGYSFTSYYIHWVRQAPGQGLEWVGLINPTGGYTYAQKFEGRVTMTSDSSTSTVYMEMRSLRSEDTAVYYCARDIVLIPASSGVDVWGQGTTVTVCS
chain 2: EIVLTQSPATLSLSPGERATLSCRASQSVSTSLAWYQHKPGQTPRLLIYDASNRATGIPARFSGSGSGTDFTLTISSLEAEDFAVYYCQQRSSWPRIFSFGPGTKVDVK
B8: BD56-976 (protein)
chain 1: QVQLVESGGGVVQPGRSLRLSCAASGFTFSKYAMHWVRQAPGKGLEWVAVLSYDGTGTYYGDSVKGRFTVSRDNSKNTLYLQMNSLRPEDTAVYYCAKGGQYADYVRGGDYWGQGTLVIVSS
chain 2: DIQMTQSPSSLSASVGDRVIITCQASQDINYYLNWYQQKPGKAPKLLIYDAADLEAGVPSRFSGTGSGTDFTLTISSLQPEDFATYYCQQYNILPLTFGGGTKVEIK
B9: BD58-0587 (protein)
chain 1: QVHLVQSGAAVKKPGSSVKVSCKASGGSFSSHTISWVRQAPGQGLEWMGKIIPFLSVANYAQRFQGRVTITADESTSTAYMELNSLTSEDTAMYYCARDRDGYFGAFDMWGQGTMVTVSA
chain 2: QSVLTQPPSVSGAPGQRVTISCTGSGSNIGAGYDVHWYQQLPGTAPKVLIYGNNHRPSGVPDRFSGSKSDTSASLAIAGLQAEDEADYFCQSYDSSLSDVIFAGGTKLTVL
B10: BD58-0448 (protein)
chain 1: QVTLRESGPALVKPTQTLTLTCTFSGFSLSTSGMCVSWIRQPPGKALEWLARIDWDDDKYYNTSLKTRLTISKDTSKNQVVLTMTNMDPVDTATYYCARIRETDYYGSGSYFYGMDVWGQGTTVTVSS
chain 2: DIVMTQSPLSLPVTPGEPASISCRSSQSLLHNNGYNYLDWYLQRPGQSPQLLIYLGSDRASGVPDRFSGSGSGTDFTLKISRVEAEDVGVYYCMQALQTPPTFGQGTKLEIK
B11: BD56-1192 (protein)
chain 1: QVQLVESGGGVVQPGRSLRLSCAASGFNFSSYAMHWVRQAPGKGLEWVAVISYDGSNKYYADSVKGRFPMSRDNSKKTLYLQMNRLRAEDTAVYYCARDLDLWFGEGYYGMDVWGQGTTVTVSS
chain 2: QSALTQPASVSGSPGQSITISCTGTSSDVGDYNYVSWYQQHPGKAPKLMIYDVSDRPSGVSNRFSGSKSGNTASLTISGLQAEDEADYYCNSYTSSGTRVFGGGTKLTVL
B12: BD56-1223 (protein)
chain 1: QVQLLQSGAEVKKPGSSVRVSCKASGGTLIDYALSWVRQAPGQGLEWMGGIVPILDITNYAQKFQGRVTITADKSTSTAYMELSSLRSEDTAVYFCATGVQYCSGGSCNSAYFDSWGQGTLVTVSS
chain 2: EIVLTQSPGTLSLSPGERATLSCRASQSISSSHLAWYQQKPGQAPRLLIYGASSRATGIPDRFSGSGSGTDFTLTISRLAPEDFAVYYCQQYGSSPQRTFGQGTKVEIK

biological target: SARS-CoV-2 Omicron BA.1 spike pseudovirus; assay: pseudovirus neutralization IC50; higher = weaker neutralization
Protocol: (§1)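 Single-round VSV luciferase pseudovirus mixed with antibody dilutions for 1 h and put on Huh-7 cells for about a day; IC50 from the dose curve.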

Binder	pseudovirus neutralization IC50 [µg/mL]
B1	> 10
B2	1.69
B3	0.602
B4	> 10
B5	1.09
B6	> 10
B7	3.24
B8	> 10
B9	0.297
B10	0.0152
B11	0.544
B12	0.00453

biological target: SARS-CoV-2 Omicron BA.2 spike pseudovirus; assay: as above
Protocol: as §1

Binder	pseudovirus neutralization IC50 [µg/mL]
B1	> 10
B2	1.58
B3	1.34
B4	> 10
B5	1.48
B6	> 10
B7	1.32
B8	> 10
B9	0.102
B10	0.0138
B11	0.49
B12	0.00121

biological target: SARS-CoV-2 Omicron BA.2.75 spike pseudovirus; assay: as above
Protocol: as §1

Binder	pseudovirus neutralization IC50 [µg/mL]
B1	> 10
B2	2.83
B3	0.663
B4	> 10
B5	1.8
B6	> 10
B7	4.56
B8	> 10
B9	0.212
B10	0.143
B11	0.167
B12	0.00439

biological target: SARS-CoV-2 Omicron BA.5 spike pseudovirus; assay: as above
Protocol: as §1

Binder	pseudovirus neutralization IC50 [µg/mL]
B1	> 10
B2	1.45
B3	> 10
B4	> 10
B5	1.24
B6	> 10
B7	1.22
B8	> 10
B9	> 10
B10	0.0129
B11	0.108
B12	0.815

biological target: SARS-CoV-2 Omicron BQ.1.1 spike pseudovirus; assay: as above
Protocol: as §1

Binder	pseudovirus neutralization IC50 [µg/mL]
B1	> 10
B2	1.85
B3	> 10
B4	> 10
B5	> 10
B6	> 10
B7	1.34
B8	> 10
B9	> 10
B10	> 10
B11	0.539
B12	> 10

biological target: SARS-CoV-2 Omicron XBB spike pseudovirus; assay: as above
Protocol: as §1

Binder	pseudovirus neutralization IC50 [µg/mL]
B1	> 10
B2	2.56
B3	0.942
B4	> 10
B5	1.08
B6	> 10
B7	1.07
B8	> 10
B9	> 10
B10	> 10
B11	1.94
B12	> 10

biological target: SARS-CoV-2 early D614G spike pseudovirus; assay: as above
Protocol: as §1

Binder	pseudovirus neutralization IC50 [µg/mL]
B1	> 10
B2	> 10
B3	> 10
B4	> 10
B5	> 10
B6	> 10
B7	> 10
B8	2.51
B9	1.55
B10	> 10
B11	9.84
B12	0.0998
